Compound potency records, mixed from different reports. Data source: NIAID ChemDB in PubChem.

All rows: target-level tests

Blank or dashed fields: not listed here. ICn: concentration for n% inhibition. a–b is a range or a potency band. Rows are shuffled and stem from different studies.

SMILES	mutations	read by	strain	species	endpoint	protein	value
COC(=O)NCC(=O)NCCCCC(C)(C)CN(C[C@@H](O)[C@H](Cc1ccccc1)NC(=O)O[C@H]1CO[C@H]2OCC[C@H]21)S(=O)(=O)c1ccc2c(c1)OCO2	-	fluorescence	-	HIV-1	Ki	Protease	<0.001 µM
CN(C)CC(=O)NC(C)(C)C#Cc1ccc(NC(=O)CSc2nnnn2-c2ccc(C3CC3)cc2Cl)c(Cl)c1	RT-K103 Y181C	PicoGreen / fluorescence	-	HIV-1	IC50	Reverse transcriptase	<1 µM
Nc1nc2c(ncn2[C@H]2CO[C@@H](COP(=O)(O)OP(=O)(O)OP(=O)(O)O)O2)c(=O)[nH]1	RT-K65R	radiometric	-	HIV	Ki	Reverse transcriptase	0.116 µM
CC(=O)c1cn(Cc2cccc(Cl)c2)c(=O)c2c(O)c(=O)ccn12	-	ELISA	-	HIV-1	IC50	Integrase	0.01–0.1 µM
Cc1ccc(-n2nnnc2SCC(=O)Nc2ccc(-c3ccc(CC(=O)O)cc3)cc2[N+](=O)[O-])c(Cl)c1	-	PicoGreen / fluorescence	WT	HIV-1	IC50	Reverse transcriptase	<1 µM
O=C(NCCN1CCCC1=O)c1cn2ccn(Cc3cccc(Cl)c3)c(=O)c2c(O)c1=O	-	ELISA	-	HIV-1	IC50	Integrase	0.01–0.1 µM
CC(C)OC(=O)NCCCC(C)(C)CN(C[C@@H](O)[C@H](Cc1ccccc1)NC(=O)O[C@H]1CO[C@H]2OCC[C@H]21)S(=O)(=O)c1ccc2c(c1)OCO2	-	fluorescence	-	HIV-1	Ki	Protease	<0.001 µM
O=C1c2c(O)c(=O)ccn2C2(CCCCC2)CN1Cc1ccc(Cl)c(Cl)c1	-	ELISA	-	HIV-1	IC50	Integrase	0.01–0.1 µM
O=C(O)Cc1ccc(-c2ccc(NC(=O)CSc3nnnn3-c3ccc4ncsc4c3Cl)c(Cl)c2)cc1	RT-K103 Y181C	PicoGreen / fluorescence	-	HIV-1	IC50	Reverse transcriptase	<1 µM
CC(C)(CCCCN)CN(C[C@@H](O)[C@H](Cc1ccccc1)NC(=O)O[C@H]1CO[C@H]2OCC[C@H]21)S(=O)(=O)c1cccc2c1OCO2	-	fluorescence	-	HIV-1	Ki	Protease	<0.001 µM
O=C(NC(CCc1ccccc1)c1ccccc1)c1cn2c(c(O)c1=O)C(=O)N(Cc1cccc(Cl)c1)CC2	-	ELISA	-	HIV-1	IC50	Integrase	0.01–0.1 µM
CON(C)C(=O)OCCC(C)(C)CN(C[C@@H](O)[C@H](Cc1ccccc1)NC(=O)O[C@H]1CO[C@H]2OCC[C@H]21)S(=O)(=O)c1ccc2c(c1)OCO2	-	fluorescence	-	HIV-1	Ki	Protease	<0.001 µM
CC(C)(C)c1ccc(-n2nnnc2SCC(=O)Nc2ccc(-c3ccc(/C=C/C(=O)O)s3)cc2Cl)c(Cl)c1	RT-K103 Y181C	PicoGreen / fluorescence	-	HIV-1	IC50	Reverse transcriptase	<1 µM
CC(C)OC(=O)NCCCC(C)(C)CN(C[C@@H](O)[C@H](Cc1ccccc1)NC(=O)O[C@H]1CO[C@H]2OCC[C@H]21)S(=O)(=O)c1cccc(N)c1	-	fluorescence	-	HIV-1	Ki	Protease	<0.001 µM
CC(C)(C#Cc1ccc(NC(=O)CSc2nnnn2-c2cc(C3CC3)ccc2Cl)c(Cl)c1)NC(=O)c1cc[n+]([O-])cc1	-	PicoGreen / fluorescence	WT	HIV-1	IC50	Reverse transcriptase	<1 µM

2 of the rows above, restated:

SMILES	mutations	read by	strain	species	endpoint	protein	value
CON(C)C(=O)OCCC(C)(C)CN(C[C@@H](O)[C@H](Cc1ccccc1)NC(=O)O[C@H]1CO[C@H]2OCC[C@H]21)S(=O)(=O)c1ccc2c(c1)OCO2	-	fluorescence	-	HIV-1	Ki	Protease	<0.001 µM
CC(C)(C)c1ccc(-n2nnnc2SCC(=O)Nc2ccc(-c3ccc(/C=C/C(=O)O)s3)cc2Cl)c(Cl)c1	RT-K103 Y181C	PicoGreen / fluorescence	-	HIV-1	IC50	Reverse transcriptase	<1 µM